PubChem BioAssay AID624099 | ICCB-Longwood | 2012
Purpose: 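Knock-downs relieving repression by E2 of an HPV18 LCR luciferase reporter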 (primary screen). Cell system: human C33A cervical carcinoma cells (HPV-negative) stably expressing BPV1 E2 and an HPV18 LCR luciferase reporter. Reagents: siRNA pool against human genes, 40 nM. Duration: 72 h. Read-out: 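Per-well luciferase luminescence, z-scored on each plate against the plate mean and SD with control wells left out, then averaged across three replicate plates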. Scale: mean z-score and z-score: higher = stronger reporter signal, weaker E2 silencing. Hit rule: 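Hit if mean z-score reaches 2 and two or more of three replicate z-scores also reach 2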.
The whole screen tested about 21,000 reagents; this is a random part of them. Of all reagents, 497 (2.4%) are marked active. 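Higher z means weaker E2 silencing; only reporter increases were scored, and knock-downs that hurt cell survival may mask genuine repressor factors.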

LINC00851 | mean z-score = 0.05; z-score, replicate A = 0.25; z-score, replicate B = -0.23; z-score, replicate C = 0.13; activity call = inactive
WASH5P | mean z-score = -0.32; z-score, replicate A = 0; z-score, replicate B = -0.4; z-score, replicate C = -0.57; activity call = inactive
HERC2P10 | mean z-score = 0.9; z-score, replicate A = 0.81; z-score, replicate B = 1.25; z-score, replicate C = 0.65; activity call = inactive
LOC389202 (retired record) | mean z-score = 0.12; z-score, replicate A = 0.39; z-score, replicate B = 0.18; z-score, replicate C = -0.2; activity call = inactive
BCL2L1 | mean z-score = -1.34; z-score, replicate A = -1.13; z-score, replicate B = -1.4; z-score, replicate C = -1.48; activity call = inactive
LIPI | mean z-score = 0.42; z-score, replicate A = 0.7; z-score, replicate B = 0.28; z-score, replicate C = 0.28; activity call = inactive
ZFYVE16 | mean z-score = -1.42; z-score, replicate A = -1.49; z-score, replicate B = -1.54; z-score, replicate C = -1.22; activity call = inactive
ADAM21 | mean z-score = 0.52; z-score, replicate A = 0.67; z-score, replicate B = 0.7; z-score, replicate C = 0.18; activity call = inactive
CYP21A2 | mean z-score = 0.39; z-score, replicate A = 0.29; z-score, replicate B = 0.28; z-score, replicate C = 0.61; activity call = inactive
ANKRD22 | mean z-score = 0.37; z-score, replicate A = 0.54; z-score, replicate B = 0.15; z-score, replicate C = 0.42; activity call = inactive
LOC388794 (retired record) | mean z-score = 0.37; z-score, replicate A = 0.19; z-score, replicate B = 0.57; z-score, replicate C = 0.34; activity call = inactive

Single entries from the entries so far.
Entry for ZFYVE16 under “mean z-score”: -1.42
LIPI, z-score, replicate B: 0.28

The results go on.
TBL3 | mean z-score = 0.05; z-score, replicate A = 0.06; z-score, replicate B = 0.12; z-score, replicate C = -0.02; activity call = inactive
LOC401391 (retired record) | mean z-score = 0.31; z-score, replicate A = 0.28; z-score, replicate B = 0.54; z-score, replicate C = 0.12; activity call = inactive
PHF23 | mean z-score = -0.29; z-score, replicate A = -0.29; z-score, replicate B = -0.32; z-score, replicate C = -0.27; activity call = inactive
LCAT | mean z-score = 0.37; z-score, replicate A = 0.3; z-score, replicate B = 0.31; z-score, replicate C = 0.51; activity call = inactive
BEND7 | mean z-score = 2.52; z-score, replicate A = 2.1; z-score, replicate B = 2.91; z-score, replicate C = 2.55; activity call = active
SCARB2 | mean z-score = 1.16; z-score, replicate A = 1.13; z-score, replicate B = 1.43; z-score, replicate C = 0.91; activity call = inactive
EAF2 | mean z-score = -0.27; z-score, replicate A = -0.31; z-score, replicate B = -0.26; z-score, replicate C = -0.23; activity call = inactive
RRAGB | mean z-score = -0.24; z-score, replicate A = -0.09; z-score, replicate B = -0.38; z-score, replicate C = -0.25; activity call = inactive
GOT1 | mean z-score = 0.7; z-score, replicate A = 0.54; z-score, replicate B = 0.79; z-score, replicate C = 0.76; activity call = inactive
SNW1 | mean z-score = 1.32; z-score, replicate A = 1.09; z-score, replicate B = 1.5; z-score, replicate C = 1.39; activity call = inactive
